Results reported in ChEMBL document CHEMBL1148369, “Novel S-substituted aminoalkylamino ethanethiols as potential antidotes against sulfur mustard toxicity” (2004).

Each molecule was assayed on Mus musculus (assay: LD50 following oral dosing.).
`Cc1ccc(SCCNCCN)cc1.Cl.Cl` gave an LD50 of 1900 mg/kg. Work on `Cl.Cl.NCCCCNCCSc1ccccc1` yielded an LD50 of 952 mg/kg. `CC(C)SCCNCCN.Cl.Cl` showed an LD50 of 4520 mg/kg. `CC(C)SCCNCCCN.Cl.Cl` gave an LD50 of 2260 mg/kg. For `CCCSCCNCCCN.Cl.Cl`, the LD50 was 2260 mg/kg. `Cl.Cl.N=C(SCCNCCN)c1cccnc1` showed an LD50 of 4520 mg/kg. For `Cl.Cl.NCCSc1ccccc1`, the LD50 was 2260 mg/kg. `Cl.Cl.NCCCNCCSC1CCCCC1` showed an LD50 of 1130 mg/kg. With `Cl.Cl.NCCCNCCSc1ccccc1` the LD50 was 1340 mg/kg. `CCSCCNCCCN.Cl.Cl` showed an LD50 of 4520 mg/kg. `CSCCNCCCN.Cl.Cl` was tested, and the LD50 was 3200 mg/kg. Molecule `CCCCSCCNCCN.Cl.Cl` has an LD50 of 4520 mg/kg. Molecule `CCCSCCNCCN.Cl.Cl` has an LD50 of 4520 mg/kg. With `Cc1ccc(SCCNCCCN)cc1.Cl.Cl` the LD50 was 1130 mg/kg. Molecule `Cl.Cl.NCCNCCSc1ccc(Cl)cc1` has an LD50 of 1130 mg/kg. `Cl.Cl.N=C(SCCNCCCN)c1cccnc1` was tested, and the LD50 was 4520 mg/kg. `Cl.Cl.NCCNCCSc1ccncc1` gave an LD50 of 4520 mg/kg. With `Cl.Cl.NCCNCCSC1CCCCC1` the LD50 was 1130 mg/kg. `Cl.Cl.NCCNCCSc1ccccc1` showed an LD50 of 1250 mg/kg. For `CCSCCNCCN.Cl.Cl`, the LD50 was 3200 mg/kg. In the case of `Cl.Cl.NCCCNCCSc1ccc(Cl)cc1`, the LD50 is reported as 1590 mg/kg. `CSCCNCCN.Cl.Cl` showed an LD50 of 4520 mg/kg.
